Measured values from several laboratories, pooled; numbers as filed in NIAID ChemDB.

Shared fields: tests in culture; agent: Varicella zoster virus

ECn is the concentration giving n% inhibition of infection, replication or growth. Blank or dashed fields: not listed here. Rows are shuffled and stem from different studies. a–b is a range or a potency band.

structure | read by | measure | strain | cells | value
CC#Cc1cn([C@@H]2O[C@H](COP(=O)(O)OCC(Cl)(Cl)Cl)[C@@H](O)[C@@H]2O)c(=O)[nH]c1=O | plaque count | EC50 | G-31 | MRC-5 | 10–100 µM
CCCOc1nc(N)nc2c1ncn2/C=C1/C[C@@H]1CO | cytopathic effect | EC50 |  | HFF | 0.5 µM
O=c1[nH]cnc2c1ncn2OCCOCP(=O)(O)O | plaque count | EC50 | ELLEN | MRC-5 | >340 µM
OC[C@H]1O[C@H](c2cc(Br)c(F)cc2F)C[C@@H]1O | plaque count | EC50 | (TK+)/OKA | HEL | >200 µM
CC1(C)[C@@H](CCO)C[C@H]1n1nnc2c(Cl)nc(N)nc21 | plaque count | EC50 | (TK+)/OKA | HEL | >20 µg/mL
Nc1ncnc2c1ncn2C[C@@H](CO)OCP(=O)(O)O | cytopathic effect | EC50 | YS/R (TK-) | HEL | 0.004 µg/mL
CC1(C)[C@@H](CCO)C[C@H]1n1cnc2c(=O)[nH]c(N)nc21 | plaque count | EC50 | (TK-)07/1 | HEL | >50 µg/mL
O=C(NCc1ccc(Cl)cc1)c1c[nH]c2c(F)cccc2c1=O | plaque count | EC50 | KLE |  | 0.7 µM
Nc1ccn(C[C@@H](CO)OCP(=O)(O)O)c(=O)n1 |  | MIC |  |  | 0.2 µg/mL
O=c1[nH]c(=O)n(C2C[C@H](CO)[C@@H](CO)C2)cc1I |  | EC50 | OKA | HEL | >100 µg/mL
Nc1nc(N)c2ncn(OCC(CO)OCP(=O)(O)O)c2n1 | plaque count | EC50 | ELLEN | MRC-5 | >300 µM
C[C@H](Cn1cnc2c(N)nc(N)nc21)OCP(=O)(O)O | cytopathic effect | EC50 |  | HEL | >30 µM
CC1(C)c2ccccc2N(c2ccccc2)C12C=Nc1c(ccc3ccccc13)O2 | plaque count | EC50 | 07/1 (TK-) | HEL | >8.2 µM
OC[C@H]1O[C@H](c2cc(F)c(F)cc2F)C[C@@H]1O | plaque count | EC50 | (TK-)/YS/R | HEL | >200 µM
Nc1nc2c(ncn2[C@@H](CCO)OCCO)c(=O)[nH]1 | cytopathic effect | EC50 |  | HFF | >200 µM
Nc1nc2c(ncn2COC(CO)CO)c(=O)[nH]1 | cytopathic effect | EC50 | Oka PFA-resistant/B | HEL | 1.2 µM
CC#Cc1cn([C@@H]2O[C@H](COP(=O)(N[C@@H](C)C(=O)OC)Oc3ccccc3)[C@@H](O)[C@@H]2O)c(=O)[nH]c1=O | plaque count | EC50 | G-31 | MRC-5 | >100 µM
CC1(C)[C@@H](CCO)C[C@H]1n1nnc2c(N)ncnc21 | plaque count | EC50 | (TK-)07/1 | HEL | >20 µg/mL
O=c1[nH]c(=O)n([C@H]2C[C@H](O)[C@@H](CO)O2)cc1/C=C/Br | plaque count | EC50 | OKA | CCRF-HSV-B | 0.00083 µg/mL
CC(C)(C)[Si](OC[C@H]1C[C@@H](Cn2cnc3c(Cl)nc(N)nc32)c2cn(Cc3ccccc3)nc21)(c1ccccc1)c1ccccc1 |  | EC50 | TK- | HEL | 2.1 µM
Cc1cc([C@H]2C[C@H](O)[C@@H](CO)O2)c(F)cc1Cl | plaque count | EC50 | TK+/YS | HEL | >200 µM
C=CCNc1nc(N)nc2c1ncn2/C=C1/C[C@@H]1CO | cytopathic effect | EC50 |  | HFF | >367 µM
Nc1ncnc2c1ncn2[C@@H]1C[C@H](CO)[C@@H](O)[C@@H]1O |  | EC50 | TK- | HEL | ≤50 µM
OC[C@H]1O[C@H](c2cc(I)c(F)cc2F)C[C@@H]1O | plaque count | EC50 | TK+/YS | HEL | >200 µM
Nc1ncnc2c1ncn2C[C@@H](CO)OCP(=O)(O)O |  | MIC |  |  | 0.02 µg/mL
Nc1nc2c(ncn2CC(CO)OCP(=O)(O)O)c(=O)[nH]1 | plaque count | EC50 |  | WI-38 | 0.2 µM
Nc1ncnc2c1ncn2C[C@H](O)CO | cytopathic effect | EC50 | OKA | HEL | 70 µg/mL
CC(C)Nc1ncnc2c1ncn2C1C[C@H](CO)[C@@H](CO)C1 |  | EC50 | YS | HEL | >100 µg/mL
C[C@@H](Cn1cnc2c(=O)[nH]c(N)nc21)OCP(=O)(O)O | cytopathic effect | EC50 |  | HEL | 1.3 µM
Nc1nc2c(ncn2[C@H]2C=C[C@@H](CO)[C@H](O)C2)c(=O)[nH]1 |  | EC50 | YS |  | 1.2 µg/mL
Nc1ncc2ncn(C[C@@H](CO)OCP(=O)(O)O)c2n1 | cytopathic effect | EC50 |  | HEL | 121 µM
Cn1cc(C(=O)NCc2ccc(Cl)cc2)c(=O)c2cc(CN3CCOCC3)ccc21 | plaque count | EC50 | DI varicella isolate | HFF | 0.2 µM
Nc1nc2c(ncn2COC(CO)CO)c(=O)[nH]1 | plaque count | EC50 | YS (TK+) | HEL | 2.05 µM
OC[C@H]1CC(n2cnc3c(NC4CC4)ncnc32)C[C@@H]1CO |  | EC50 | YS | HEL | >100 µg/mL
Nc1nc2ncn(CCOCP(=O)(O)O)c2c(=O)[nH]1 | plaque count | EC50 | YS (TK+) | HEL | 0.03 µg/mL
OC[C@H]1O[C@@H](c2cc(C(F)(F)F)c(F)cc2F)C[C@@H]1O | plaque count | EC50 | TK+/YS | HEL | >200 µM
Nc1ncnc2c1ccn2[C@@H]1C[C@H](O)[C@@H](O)[C@H]1O |  | EC50 | OKA | HEL | >50 µg/mL
COC(=O)CC(SCCO)n1cc(C)c(=O)[nH]c1=O | cytopathic effect | EC50 |  | HFF | >200 µM
Nc1ncnc2c1ncn2OCC(CO)OCP(=O)(O)O | plaque count | EC50 | ELLEN | MRC-5 | 210 µg/mL
Nc1nc2c(ncn2COC(CO)CO)c(=O)[nH]1 |  | EC50 | TK- | HEL | 80 µM
C[C@@H](NC(=O)C1(Cc2ccccc2)CCN1C(=O)OCc1ccccc1)C(N)=O | plaque count | EC50 | OKA (TK+) | HEL | >400 µM
O=C(O)CP(=O)(O)O | cytopathic effect | EC50 | Oka PFA-resistant/B | HEL | 321.3 µM
Nc1nc2c(ncn2CCC(CO)CO)c(=O)[nH]1 | plaque count | EC50 | 13 isolates | HEL | 3.6 µM
Nc1ncnc2c1ncn2C[C@H](CO)OCP(=O)(O)O | cytopathic effect | EC50 |  | HEL | 2 µM
CC#Cc1cn([C@@H]2O[C@H](COP(=O)(O)OCCCCCCCCCCCC)[C@@H](O)[C@@H]2O)c(=O)[nH]c1=O | plaque count | EC50 | G-31 | MRC-5 | 100 µM
Nc1nc(N)c2ncn(OCC(CO)OCP(=O)(O)O)c2n1 | plaque count | EC50 | ELLEN | MRC-5 | >300 µg/mL
Nc1nc2c(ncn2CC(CO)CCO)c(=O)[nH]1 |  | EC50 | TK- | HEL | >100 µM
CC(C)Nc1nc2cc(Cl)c(Cl)cc2n1[C@H]1O[C@@H](CO)[C@H](O)[C@@H]1O | plaque count | EC50 |  | HFF | >266 µM
Nc1nc2c(ncn2COCCO)c(=O)[nH]1 | plaque count | EC50 | 07/1 (TK-) | HEL | 53.3 µM
Nc1nc2c(ncn2OCC2COP(=O)(O)CO2)c(=O)[nH]1 | plaque count | EC50 | ELLEN | MRC-5 | 26 µM
CCCCCSc1nc(N)nc2c1ncn2/C=C1/C[C@@H]1CO | cytopathic effect | EC50 |  | HFF | 2.3 µM
COc1ccc2c(c1)OC1(C=C2)N(C)c2ccc(Cl)cc2C1(C)C | plaque count | EC50 | YS (TK+) | HEL | 4.4 µM
Nc1nc(Cl)c2ncn([C@@H](CCO)OCCO)c2n1 | cytopathic effect | EC50 |  | HFF | 90 µM
Nc1nc2c(ncn2CCCC(O)CF)c(=O)[nH]1 | cytopathic effect | EC50 | 07-01/TK- | HEL | >50 µg/mL
CN1c2ccc(Cl)cc2C(C)(C)C12C=Cc1cc([N+](=O)[O-])ccc1O2 | plaque count | EC50 | 07/1 (TK-) | HEL | 1.7 µM
CC1(C)[C@@H](CCO)C[C@H]1n1cnc2c(N)ncnc21 | plaque count | EC50 | (TK-)07/1 | HEL | >20 µg/mL
Nc1nc2c(ncn2CC(CO)CCO)c(=O)[nH]1 | plaque count | EC50 |  | VERO | 2 µM
Nc1ncnc2c1ncn2C[C@@H](CF)OCP(=O)(O)O | cytopathic effect | EC50 |  | HEL | 102 µM
C=Cc1cc([C@H]2C[C@H](O)[C@@H](CO)O2)c(F)cc1F | plaque count | EC50 | YS/R (TK-) | HEL | >200 µM
[N-]=[N+]=NC(CBr)c1cn(CCC(CO)CO)c(=O)[nH]c1=O | plaque count | EC50 | ELLEN | HFF | 16.2 µM
Nc1nc(NC2CC2)c2ncn(/C=C3/C[C@@H]3CO)c2n1 | cytopathic effect | EC50 |  | HFF | 7 µM
Nc1nc2c(ncn2[C@H]2C=C[C@@H](CO)CC2)c(=O)[nH]1 |  | EC50 |  |  | 1–10 µM
O=c1ccn([C@@H]2O[C@H](/C=C/C=C(Br)Br)[C@@H](O)[C@H]2O)c(=O)[nH]1 |  | EC50 | YS | HEL | >120 µM
C[C@@H](NC(=O)C1(Cc2ccccc2)CCN1C(=O)OCc1ccccc1)C(=O)OC(C)(C)C | plaque count | EC50 | 07/1 (TK-) | HEL | >16 µM
OC[C@H]1O[C@@H](c2cc(C#CI)c(F)cc2F)C[C@@H]1O | plaque count | EC50 | 07/1 (TK-) | HEL | >20 µM
CCCCCCCC/C=C/CCCCCCCC(=O)O | cytopathic effect | EC50 | 07/1 (TK-) | HEL | >100 µM
Nc1nc(N)c2ncn(CCOCP(=O)(O)O)c2n1 | plaque count | EC50 | YS/R (TK-) | HEL | 2.4 µM
OC[C@H]1O[C@@H](c2cc(C#CBr)c(F)cc2F)C[C@@H]1O | plaque count | EC50 | YS | HEL | 13 µM
Nc1nc2c(ncn2CCC(CO)CO)c(=O)[nH]1 | cytopathic effect | EC50 | Oka CF1742-resistant | HEL | 65 µM
Nc1ncnc2c1ncn2C(CF)CCCO | cytopathic effect | EC50 | YS/R (TK-) | HEL | >50 µg/mL
CN1c2ccc([N+](=O)[O-])cc2C(C)(C)C12C=Cc1cc([N+](=O)[O-])ccc1O2 | plaque count | EC50 | 07/1 (TK-) | HEL | 1.1 µM
Nc1nc(=O)n([C@H]2C[C@H](O)[C@@H](CO)O2)cc1/C=C/Cl | plaque count | EC50 | 13 isolates | HEL | 0.028 µM
Nc1nc2c(ncn2/C=C2\CC2(CO)CO)c(=O)[nH]1 | cytopathic effect | EC50 |  | HFF | 0.6 µM
Nc1ncnc2c1ncn2C[C@@H](CO)OCP(=O)(O)O | cytopathic effect | EC50 | Oka CF1742-resistant | HEL | 0.025 µM
OC[C@H]1O[C@@H](c2cc(F)c(F)cc2F)C[C@@H]1O | plaque count | EC50 | (TK-)07/1 | HEL | >200 µM
Nc1ncc2ncn(C[C@@H](CF)OCP(=O)(O)O)c2n1 | cytopathic effect | EC50 |  | HEL | >100 µM
CN1c2ccccc2C(C)(C)C12C=Cc1cc([N+](=O)[O-])ccc1O2 | plaque count | EC50 | 07/1 (TK-) | HEL | 3.1 µM
CC1(C)[C@@H](CO)CC[C@@]1(C)Cn1cnc2c(=O)[nH]cnc21 | cytopathic effect | EC50 | YS/R (TK-) | HEL | >50 µg/mL
O=c1[nH]c(=O)n([C@H]2C[C@H](O)[C@@H](CO)O2)cc1/C=C/Cl | plaque count | EC50 | YS/R (TK-) | HEL | >138 µM
Nc1nc2c(ncn2CC(CO)CCO)c(=O)[nH]1 |  | EC50 | ULF | HL | 0.4–0.7 µM
CCCCCCCCCCc1cc2cn([C@H]3C[C@H](O)[C@@H](CO)O3)c(=O)nc2o1 | plaque count | EC50 | OKA | HEL | 0.015 µM
CCCCCCCC/C=C/CCCCCCCC(=O)OCC(CO)OCn1cnc2c(=O)[nH]c(N)nc21 | cytopathic effect | EC50 | 07/1 (TK-) | HEL | 37 µM
OC[C@H]1O[C@@H](c2cc(I)c(F)cc2F)C[C@@H]1O | plaque count | EC50 | (TK+)/OKA | HEL | >200 µM
O=C(O)P(=O)(O)O | cytopathic effect | EC50 | Clinical isolate VZV-13 | HEL | 88.4 µM
OC[C@H]1O[C@@H](n2c(Br)nc3cc(Cl)c(Cl)cc32)[C@H](O)[C@@H]1O | plaque count | EC50 |  | HFF | >50 µM
Cc1cc([C@@H]2C[C@H](O)[C@@H](CO)O2)c(Cl)cc1F | plaque count | EC50 | TK+/YS | HEL | >200 µM
Nc1nc(N)c2ncn(OCCOCP(=O)(O)O)c2n1 | plaque count | EC50 | ELLEN | MRC-5 | 3.9 µg/mL

A second listing of 8 rows from above:

structure	read by	measure	strain	cells	value
O=c1[nH]c(=O)n([C@H]2C[C@H](O)[C@@H](CO)O2)cc1/C=C/Br	plaque count	EC50	OKA	CCRF-HSV-B	0.00083 µg/mL
Nc1ncnc2c1ncn2[C@@H]1C[C@H](CO)[C@@H](O)[C@@H]1O		EC50	TK-	HEL	≤50 µM
CC#Cc1cn([C@@H]2O[C@H](COP(=O)(O)OCC(Cl)(Cl)Cl)[C@@H](O)[C@@H]2O)c(=O)[nH]c1=O	plaque count	EC50	G-31	MRC-5	10–100 µM
[N-]=[N+]=NC(CBr)c1cn(CCC(CO)CO)c(=O)[nH]c1=O	plaque count	EC50	ELLEN	HFF	16.2 µM
Nc1ncc2ncn(C[C@@H](CF)OCP(=O)(O)O)c2n1	cytopathic effect	EC50		HEL	>100 µM
CN1c2ccccc2C(C)(C)C12C=Cc1cc([N+](=O)[O-])ccc1O2	plaque count	EC50	07/1 (TK-)	HEL	3.1 µM
C[C@@H](Cn1cnc2c(=O)[nH]c(N)nc21)OCP(=O)(O)O	cytopathic effect	EC50		HEL	1.3 µM
O=C(O)P(=O)(O)O	cytopathic effect	EC50	Clinical isolate VZV-13	HEL	88.4 µM